{"source": "patent US7087375B1", "about": "“Method for determining the mechanism of HIV RT inhibitors” (priority 2000, dated 2006)", "target": "T1, HIV-1 RT wild type (HXB2) (Human immunodeficiency virus type 1 group M subtype B, UniProt P04585)", "T1 construct": "The final RT products, in a heterodimeric form (p66/p51); made in house; host or cells: E. coli XL1-Blue (vector pKK233-2)", "assay_type": "biochemical", "note": "“And” between values parts separate entries of the source, which are not always exact repeats. Equal entries are not always repeated."}
{"substance": "d4T-TP", "values": [{"measurement": "Fold resistance in RT-assay relative to HXB2", "value": "1.0 +/− 0.1 fold"}, {"measurement": "Ki", "value": "1.1 nM and 1.6 nM"}, {"measurement": "Ki/Km", "value": "0.0081 and 0.01"}]}
